PubChem BioAssay AID1224833 – University of Georgia | 2016
The whole screen tested about 12,000 reagents; shown is a part drawn at random. About 5,600 of them (46%) were called active. 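Active calls cover z-scores past 1 in both directions, so they include lowered as well as raised rotavirus replication.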

Test: 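Human genes whose knock-down alters rotavirus replication in monkey cells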 (primary screen)
System: monkey MA104 kidney cells
Knock-down reagent: siRNA pool against human genes, 50 nM
Time to read-out: 48 h knock-down before infection; read 24 h after infection
Challenge: infection with rotavirus strain RV3 two days after transfection; infectious dose for this stage not given
Read-out: 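Rotavirus antigen per well by fluorescent immunoassay, normalised to non-targeting control wells on each plate and given as a standard z-score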
Direction: z-score vs non-targeting control: higher = more rotavirus replication than with non-targeting control
Call rule: In these data the active calls have z-score vs non-targeting control at about -1 or lower, or at about 1 or higher
Meaning of the calls: active = z-score beyond 1 either way; inactive = z-score within 1 of zero

SLC22A7 gave z-score vs non-targeting control 1.68; active.
Depletion of ABCA3 (ATP binding cassette subfamily A member 3) came out at: z-score vs non-targeting control -2.79; active.
ZDHHC8 (zDHHC palmitoyltransferase 8) scored z-score vs non-targeting control 0.232; inactive.
After knock-down of SAMD3 (sterile alpha motif domain containing 3), the record shows z-score vs non-targeting control 0.17; inactive.
Against TRMT61B (tRNA methyltransferase 61B) the deposit lists z-score vs non-targeting control -1.48; active.
Against GP9 (glycoprotein IX platelet), the values are z-score vs non-targeting control -1.83; active.
For SACK1B (scaffolding CK1 anchoring protein B) the deposit lists z-score vs non-targeting control -0.773; inactive.
After knock-down of LDB1 (LIM domain binding 1), the screen gave z-score vs non-targeting control -0.632; inactive.
After knock-down of DCAF13 (DDB1 and CUL4 associated factor 13), the record shows z-score vs non-targeting control 1.03; active.
Against PTH1R (parathyroid hormone 1 receptor) the deposit lists z-score vs non-targeting control -0.53; inactive.
Against IGSF11 (immunoglobulin superfamily member 11), the values are z-score vs non-targeting control -1.72; active.
With knock-down of TSNAXIP1 (translin associated factor X interacting protein 1) the results were z-score vs non-targeting control 1.35; active.
Against TERB2 (telomere repeat binding bouquet formation protein 2) the deposit lists z-score vs non-targeting control -1.11; active.
With knock-down of FKBP1B (FKBP prolyl isomerase 1B), the record shows z-score vs non-targeting control -0.888; inactive.
OSBPL5 (oxysterol binding protein like 5) showed z-score vs non-targeting control -0.565; inactive.
After knock-down of FIGNL1 (fidgetin like 1), the record shows z-score vs non-targeting control -1.78; active.
FITM2 (fat storage inducing transmembrane protein 2) showed z-score vs non-targeting control 1.86; active.
ACHE (acetylcholinesterase (Yt blood group)) showed z-score vs non-targeting control 1.46; active.
Depletion of SPAM1 (sperm adhesion molecule 1) gave: z-score vs non-targeting control -2.41; active.
Knock-down of NFE4 (nuclear factor, erythroid 4) came out at: z-score vs non-targeting control -1.3; active.
After knock-down of A1BG (alpha-1-B glycoprotein), the screen gave z-score vs non-targeting control -0.742; inactive.
With knock-down of SCRT2 (scratch family transcriptional repressor 2), the record shows z-score vs non-targeting control 0.528; inactive.
HNRNPCL1 (heterogeneous nuclear ribonucleoprotein C like 1) showed z-score vs non-targeting control -0.148; inactive.
HSD17B10 (hydroxysteroid 17-beta dehydrogenase 10) gave z-score vs non-targeting control -1.26; active.

4 consecutive records already listed, for reference:
DCAF13 (DDB1 and CUL4 associated factor 13) | z-score vs non-targeting control = 1.03; outcome = active
PTH1R (parathyroid hormone 1 receptor) | z-score vs non-targeting control = -0.53; outcome = inactive
IGSF11 (immunoglobulin superfamily member 11) | z-score vs non-targeting control = -1.72; outcome = active
TSNAXIP1 (translin associated factor X interacting protein 1) | z-score vs non-targeting control = 1.35; outcome = active

More records follow:
Depletion of RPL5 (ribosomal protein L5) resulted in: z-score vs non-targeting control 0.704; inactive.
DRD1 (dopamine receptor D1) gave z-score vs non-targeting control 3.43; active.
After knock-down of OR5M11 (olfactory receptor family 5 subfamily M member 11), the record shows z-score vs non-targeting control 0.565; inactive.
Knock-down of USH2A (usherin) gave: z-score vs non-targeting control 0.162; inactive.
Against LNPEP (leucyl and cystinyl aminopeptidase), the values are z-score vs non-targeting control 0.797; inactive.
Knock-down of FCHSD2 (FCH and double SH3 domains 2) resulted in: z-score vs non-targeting control -0.566; inactive.
UNG (uracil DNA glycosylase) scored z-score vs non-targeting control 0.328; inactive.
After knock-down of ERRFI1 (ERBB receptor feedback inhibitor 1) the results were z-score vs non-targeting control 2.76; active.
After knock-down of ZCCHC8 (zinc finger CCHC-type containing 8), the record shows z-score vs non-targeting control 0.457; inactive.
Knock-down of MYL12B (myosin light chain 12B) resulted in: z-score vs non-targeting control -1.68; active.
Depletion of NAPA (NSF attachment protein alpha) came out at: z-score vs non-targeting control -2.81; active.
After knock-down of AMY1A (amylase alpha 1A), the screen gave z-score vs non-targeting control -0.7; inactive.
ARL2 (ARF like GTPase 2) gave z-score vs non-targeting control -0.389; inactive.
With knock-down of IBA57 (iron-sulfur cluster assembly factor IBA57), the screen gave z-score vs non-targeting control -1.44; active.
For PWP2 (PWP2 small subunit processome component), the entry reads z-score vs non-targeting control -0.0415; inactive.
SLC16A4 gave z-score vs non-targeting control 1.53; active.
Against RPL34 (ribosomal protein L34), the entry reads z-score vs non-targeting control 1.18; active.
CDC23 (cell division cycle 23) showed z-score vs non-targeting control 1.39; active.
XPOT (exportin for tRNA) scored z-score vs non-targeting control 0.226; inactive.
For OR56B1 (olfactory receptor family 56 subfamily B member 1) the deposit lists z-score vs non-targeting control 1.25; active.
For SLC22A4, the entry reads z-score vs non-targeting control -1.72; active.
NKAIN1 (sodium/potassium transporting ATPase interacting 1) gave z-score vs non-targeting control -1.24; active.
NPM2 (nucleophosmin/nucleoplasmin 2) gave z-score vs non-targeting control -1.23; active.
